Results published in ChEMBL document CHEMBL1133503 (J Med Chem, 2000).

Experiment: Hypoxic selectivity expressed as the ratio of IC50 values in air and nitrogen
Type: functional

SMILES	Selectivity
CCC[S+]([O-])c1ccc(N(CCCl)CCCl)cc1 (configuration not stated)	3
C[S+]([O-])c1ccc(N(CCCl)CCCl)cc1 (configuration not stated)	3
